Data as given in PubChem BioAssay AID624099 (ICCB-Longwood, 2012)
The whole screen tested about 21,000 reagents; below is a part drawn at random. 497 of all reagents (2.4%) were called active. 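Higher z means weaker E2 silencing; only reporter increases were scored, and knock-downs that hurt cell survival may mask genuine repressor factors.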

- Aim: 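Host factors E2 relies on to silence an HPV18 LCR reporter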 (primary screen)
- Cell system: human C33A cervical carcinoma cells (HPV-negative) stably expressing BPV1 E2 and an HPV18 LCR luciferase reporter
- Reagent: siRNA pool against human genes, 40 nM
- Timing: 72 h
- Detection: 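HPV18 LCR reporter light per well, converted to plate-wise z-scores that exclude control wells, and averaged over triplicate plates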
- Scale: mean z-score and z-score: higher = stronger reporter signal, weaker E2 silencing
- Hit rule: 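Hit if mean z-score reaches 2 and two or more of three replicate z-scores also reach 2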

no.	target	PubChem SID	mean z-score	z-score, replicate A	z-score, replicate B	z-score, replicate C	Outcome
1	TWIST1 (twist family bHLH transcription factor 1)	SID134311784	0.74	0.76	0.68	0.76	inactive
2	TMEM94 (transmembrane protein 94)	SID134324372	-0.32	-0.25	-0.06	-0.66	inactive
3	PEX1 (peroxisomal biogenesis factor 1)	SID134314904	-0.03	0.09	0.14	-0.31	inactive
4	CRNDE (colorectal neoplasia differentially expressed)	SID134328660	0.78	1.26	0.14	0.94	inactive
5	PSRC1 (proline and serine rich coiled-coil 1)	SID134317810	-0.2	0.11	-0.51	-0.21	inactive
6	MCOLN2 (mucolipin TRP cation channel 2)	SID134325120	-1.33	-1.36	-1.43	-1.2	inactive
7	JRKL (JRK like)	SID134315845	0.13	0.12	0.07	0.2	inactive
8	TAF1 (TATA-box binding protein associated factor 1)	SID56478970	-2.12	-1.93	-2.13	-2.31	inactive
9	CDC23 (cell division cycle 23)	SID134314255	0.71	0.51	0.6	1.01	inactive
10	GLOD4 (glyoxalase domain containing 4)	SID134323140	0.35	0.03	0.57	0.45	inactive
11	RFPL1 (ret finger protein like 1)	SID134311874	-0.01	-0.13	0.17	-0.06	inactive
12	NAP1L3 (nucleosome assembly protein 1 like 3)	SID134316194	-0.06	-0.26	0.02	0.05	inactive
13	CDKN2C (cyclin dependent kinase inhibitor 2C)	SID56478606	1	1.75	0.34	0.91	inactive
14	CTLA4 (cytotoxic T-lymphocyte associated protein 4)	SID134320267	-0.33	-0.25	-0.32	-0.43	inactive
15	TMEM109 (transmembrane protein 109)	SID134318464	0.37	0.42	0.51	0.19	inactive
16	CAB39L (calcium binding protein 39 like)	SID134318787	-0.61	-0.37	-0.92	-0.53	inactive
17	IFNA17 (interferon alpha 17)	SID134318324	0.12	0.23	0.12	0	inactive
18	NOTUM (notum, palmitoleoyl-protein carboxylesterase)	SID134322206	-1.46	-1.97	-1.64	-0.78	inactive
19	CEACAM4 (CEA cell adhesion molecule 4)	SID134323296	1.61	1.75	1.14	1.93	inactive
20	SEMA6A (semaphorin 6A)	SID134318245	-0.63	0.33	0	-2.22	inactive
21	CLDN14 (claudin 14)	SID134321245	-0.57	-0.82	-0.5	-0.4	inactive
22	DDX59 (DEAD-box helicase 59)	SID134314608	0.02	-0.19	0.01	0.24	inactive
23	TACC3 (transforming acidic coiled-coil containing protein 3)	SID134310293	-0.14	-0.18	-0.11	-0.13	inactive

5 of these entries, set out differently:
{"target":"CDC23 (cell division cycle 23)","PubChem SID":"SID134314255","mean z-score":0.71,"z-score, replicate A":0.51,"z-score, replicate B":0.6,"z-score, replicate C":1.01,"Outcome":"inactive"}
{"target":"GLOD4 (glyoxalase domain containing 4)","PubChem SID":"SID134323140","mean z-score":0.35,"z-score, replicate A":0.03,"z-score, replicate B":0.57,"z-score, replicate C":0.45,"Outcome":"inactive"}
{"target":"RFPL1 (ret finger protein like 1)","PubChem SID":"SID134311874","mean z-score":-0.01,"z-score, replicate A":-0.13,"z-score, replicate B":0.17,"z-score, replicate C":-0.06,"Outcome":"inactive"}
{"target":"NAP1L3 (nucleosome assembly protein 1 like 3)","PubChem SID":"SID134316194","mean z-score":-0.06,"z-score, replicate A":-0.26,"z-score, replicate B":0.02,"z-score, replicate C":0.05,"Outcome":"inactive"}
{"target":"CDKN2C (cyclin dependent kinase inhibitor 2C)","PubChem SID":"SID56478606","mean z-score":1,"z-score, replicate A":1.75,"z-score, replicate B":0.34,"z-score, replicate C":0.91,"Outcome":"inactive"}

Additional reagents:
no.	target	PubChem SID	mean z-score	z-score, replicate A	z-score, replicate B	z-score, replicate C	Outcome
24	BPY2C (basic charge Y-linked 2C)	SID134329815	-0.45	-0.38	-0.2	-0.75	inactive
25	HBE1 (hemoglobin subunit epsilon 1)	SID134316366	-0.73	-0.79	-0.58	-0.81	inactive
26	CNTNAP3B (contactin associated protein family member 3B)	SID134328077	2.13	2.08	2.06	2.26	active
27	CNTNAP3B (contactin associated protein family member 3B)	SID134328078	2.23	2.55	2.22	1.91	active
28	EYA3 (EYA transcriptional coactivator and phosphatase 3)	SID134315977	-0.64	-0.21	-1.07	-0.64	inactive
29	NUP58 (nucleoporin 58)	SID134318064	0.72	0.93	0.75	0.48	inactive
30	PSMC1P4 (proteasome 26S subunit, ATPase 1 pseudogene 4)	SID134326076	-0.17	-0.09	-0.13	-0.28	inactive
31	EPX (eosinophil peroxidase)	SID134314663	-0.21	-0.08	-0.23	-0.31	inactive
32	FRAS1 (Fraser extracellular matrix complex subunit 1)	SID134323189	-0.27	-0.05	-0.52	-0.23	inactive
33	CAB39 (calcium binding protein 39)	SID134319452	-1.16	-0.96	-0.84	-1.67	inactive
34	FXR2 (FMR1 autosomal homolog 2)	SID134316264	-1.31	-0.78	-1.51	-1.66	inactive
35	PPP2CA (protein phosphatase 2 catalytic subunit alpha)	SID56478711	-0.04	-0.24	0.53	-0.4	inactive
36	RRAGA (Ras related GTP binding A)	SID134320081	0.63	0.48	0.5	0.91	inactive
37	TAS2R20 (taste 2 receptor member 20)	SID134321740	0.47	0.43	0.35	0.62	inactive
38	PLA2R1 (phospholipase A2 receptor 1)	SID134319374	0.05	-0.14	0	0.29	inactive
39	TNFRSF18 (TNF receptor superfamily member 18)	SID134311791	-0.93	-0.67	-1.17	-0.94	inactive
